According to patent US20260021071A1, “SMALL MOLECULE BROAD-SPECTRUM ANTIBIOTICS” (University of Florida Research Foundation, Incorporated, priority 2022, published 2026):

Legend:
[1] = system: E. coli W3110 a TolC::Tn10 inclusive strain; experiment: Whole cell turbidity end point assay, E. coli W3110; format: cell-based; settings: read-out: W3110 IC50, titration in triplicate
PAO1 = experiment: Whole cell turbidity end point assay, PAO1; format: cell-based, Pseudomonas aeruginosa; settings: read-out: PAO01 IC50; P. aeruginosa PAO1, turbidity, titration in triplicate
[2] = system: PAO200 P. aeruginosa bacteria, the MexAB-OprM efflux pump minus strain of PAO1; experiment: Whole cell live/dead turbidity growth assay, PAO200; format: cell-based, Pseudomonas aeruginosa; settings: read-out: PAO200 IC50, titration in triplicate
[3] = system: NRS135 gram-positive S. aureus strain expressing NorA::tetM; experiment: Whole cell turbidity end point assay, NRS135; format: cell-based; settings: read-out: NRS135 IC50, titration in triplicate

Structure (SMILES)	IC50 [1]	IC50 (PAO1)	IC50 [2]	IC50 [3]
CNc1cc(Cl)c2nonc2c1[N+](=O)[O-] [Compound 3]	12.3 µM	10.2 µM	0.379 µM	13 µM
O=[N+]([O-])c1nonc1Cn1nnc2ccccc21	36 µM	21.8 µM	17.6 µM	38.2 µM
